Measured values from several laboratories, pooled; numbers as filed in NIAID ChemDB.

Common to all: host cell toxicity; cells: MT-4; read by: MTT; measure: CC50

CCn is the concentration with n% toxicity to the cells.

compound | value
C/C=C(\C)C(=O)O[C@H]1[C@H](OC(=O)CC)[C@@]23C(CC1(C)C)[C@]1(CCC4[C@@]5(C)CC[C@H](O[C@@H]6O[C@H](CO)[C@@H](O)[C@H](O[C@@H]7O[C@H](CO)[C@H](O)[C@H](O)[C@H]7O[C@@H]7O[C@@H](C)[C@H](O)[C@@H](O)[C@H]7O)[C@H]6O[C@@H]6O[C@H](CO)[C@H](O)[C@H](O)[C@H]6O)C(C)(C)C5CC[C@@]4(C)[C@]1(C)C[C@H]2O)O[C@@H]3O | <15 µg/mL
CC(C)Nc1cccnc1N1CCN(C(=O)c2cc3cc(NS(C)(=O)=O)ccc3[nH]2)CC1 | >43.81 µM
O=c1[nH]c2cc(NS(=O)(=O)c3ccc(F)cc3)ccc2c(=O)n1O | 355.8 µM
C[C@@H]1[C@@H]2O[C@]3(NC(=O)OC(C)(C)C)[C@@H](C)[C@H]1O[C@H]2[C@@H]3O | >88 µM
Cc1cn([C@H]2C[C@H](N=[N+]=[N-])[C@@H](CO)O2)c(=O)[nH]c1=O | 113 µM
COc1c(O)cc([C@H]2Oc3cc(O)cc(O)c3[C@@H](c3c(O)cc(O)c4c3O[C@H](c3cc(O)c(OC)c(O)c3)[C@H](O)C4)[C@@H]2O)cc1O | 7.58 µg/mL
Cc1cn([C@H]2C=C[C@@H](COP(=O)(O)N(CC(=O)O)CC(=O)O)O2)c(=O)[nH]c1=O | 173 µM
Cn1ncc2c1S(=O)(=O)N(Cc1cccc(Cl)c1)C(=O)N2Cc1cccc(Cl)c1 | >277.2 µM
O=c1[nH]c(=O)n([C@H]2C=C[C@@H](CO)O2)cc1C#CCCCO | 71 µM
C=C(/C=C/P(=O)(O)O)Cn1cnc2c(=O)[nH]c(N)nc21 | >1000 µM
O=c1ccn([C@H]2C[C@]3(CO2)CC(F)(F)P(=O)(O)O3)c(=O)[nH]1 | >100 µM
Cc1cc(C)cc(S(=O)(=O)c2c(C(=O)NCC(=O)NCc3ccccc3O)[nH]c3ccc(Cl)cc23)c1 | 47.3 µM
CCOCn1c(Sc2ccc3ccccc3c2[N+](=O)[O-])c(CC)c(=O)[nH]c1=O | 43.89 µM
COc1cc(NC2=NS(=O)(=O)NC(Cc3ccccc3)=C2)cc(OC)c1OC | >310 µM
Cc1cn([C@H]2C[C@H](N=[N+]=[N-])[C@@H](CO)O2)c(=O)[nH]c1=O | 500 µg/mL
C[C@H](NC(=O)[C@H](CCCN=C(N)N)NC(=O)c1ccc(CNCc2ccccn2)cc1)c1cccc2ccccc12 | 406 µM
O=S1(=O)N=C(Nc2ccc(F)c(F)c2F)C=C(Cc2ccccc2)N1 | 198 µM
CC(C)=CCC/C(C)=C/CC/C(C)=C/CC/C(C)=C/Cc1cc(O)cc2c1OC(=O)C2 | 42.37 µM
Cn1ncc2c1S(=O)(=O)N(Cc1cccc(Cl)c1)C(=O)N2Cc1ccc(Cl)cc1 | 246.1 µM
O=C(CCc1ccc(O)cc1)c1c(O)cc(O)cc1O[C@@H]1O[C@H](CO)[C@@H](O)[C@H](O)[C@H]1O | >200 µM
NC(=O)N=Nc1c(O)n(CCOCCn2c(O)c(N=NC(N)=O)c3ccccc32)c2ccccc12 | 121 µM
CCc1c(C(c2ccccc2)c2ccccc2)nc(SCC(=O)c2ccc(OC)cc2)[nH]c1=O | >366 µM
Cc1cc(C#Cc2cccc(N)c2)cc(C)c1Oc1ccnc(NC2CCN(Cc3ccc(C(N)=O)cc3)CC2)n1 | 0.198 µM
C[C@H]1[C@@H]2O[C@]3(NC(=O)OC(C)(C)C)[C@@H](C)[C@H]1O[C@H]2[C@@H]3O | >88 µM
CCO/N=C1\C(=O)N(CCOCCN2C(=O)/C(=N/OCC)c3ccccc32)c2ccccc21 | 255 µM
Cc1cn([C@H]2C=C[C@@H](COP(=O)(O)N[C@@H](CC(=O)O)C(=O)O)O2)c(=O)[nH]c1=O | 169.7 µM
Cc1cn([C@H]2C[C@H](N=[N+]=[N-])[C@@H](COC(=O)CCCCC(=O)N[C@H]3CC[C@]4(C)[C@H]5CC=C6[C@@H]7CC(C)(C)CC[C@]7(C(=O)O)CC[C@@]6(C)[C@]5(C)CC[C@H]4C3(C)C)O2)c(=O)[nH]c1=O | 230.7 µg/mL
O=C(O)c1cc(O)c(O)c(O)c1 | 16.99 µM
Cc1cc(C#Cc2cccc(N)c2)cc(C)c1Oc1ccnc(NC2CCN(Cc3cccc(C(N)=O)c3)CC2)n1 | 0.63 µM
COc1ccc(CN=C2C=C(Cc3ccc4ccccc4c3)NS(=O)(=O)N2)cc1 | 148 µM
O=c1[nH]c(=O)n([C@H]2C=C[C@@H](CO)O2)cc1C#CCO | 64 µM
CCOCn1c(Sc2ccc3ccccc3c2)c(C(C)C)c(=O)[nH]c1=O | 36.3 µM
Cc1cccc(C)c1Oc1ccnc(Nc2ccc(C#N)cc2)n1 | 12.1 µM
Cc1cn([C@H]2C=C[C@@H](CO)O2)c(=O)[nH]c1=O | 314 µM
Cn1ncc2c1S(=O)(=O)N(Cc1cccc(Cl)c1)C(=O)N2Cc1ccccc1Cl | >277.2 µM
Cc1ccc(NC2=NS(=O)(=O)NC(Cc3ccccc3)=C2)cc1Cl | 175 µM
COP(=O)(C[C@H](NP(=O)(O)OC[C@@H]1C=C[C@H](n2cc(C)c(=O)[nH]c2=O)O1)C(=O)O)OC | >259 µM
O=S1(=O)N=C(Nc2ccc(Br)cc2)C=C(Cc2cccc3ccccc23)N1 | 140 µM
Cc1cn([C@H]2C[C@H](N=[N+]=[N-])[C@@H](COC(=O)NCCSC(=O)OC[C@@H]3CC[C@H](n4cnc5c(=O)[nH]cnc54)O3)O2)c(=O)[nH]c1=O | >100 µM
Cn1ncc2c1S(=O)(=O)N(Cc1cccc(Cl)c1)C(=O)N2CC#N | 201.3 µM
COc1ccc(/C=C/C(=O)O)cc1OC | 118 µM
Nc1ccn([C@H]2C[C@]3(CO2)CC(F)(F)P(=O)(O)O3)c(=O)n1 | 90 µM
Cc1cc(C#Cc2cccc(N)c2)cc(C)c1Oc1ccnc(NC2CCN(c3cccc(C(N)=O)c3)CC2)n1 | 1.063 µM
COCn1c(Sc2ccc3ccccc3c2)c(C(C)C)c(=O)[nH]c1=O | 59.58 µM
Cc1cc(C#CC2CC2)cc(C)c1Oc1ccnc(Nc2ccc(C#N)cc2)n1 | 12.8 µM
CC(C)c1nc(CN(C)C(=O)N[C@H](C(=O)N[C@@H](Cc2ccccc2)C[C@H](O)[C@H](Cc2ccccc2)NC(=O)OCc2cncs2)C(C)C)cs1 | >1.39 µM
CCOP(=O)(OCC)C(F)(F)C[C@@]1(O)CO[C@@H](n2cnc3c(N)ncnc32)C1 | >100 µM
O=S1(=O)N=C(Nc2ccc(F)cc2)C=C(Cc2ccccc2)N1 | 255 µM
CCOP(=O)(OC[C@@H]1C=C[C@H](n2cc(C)c(=O)[nH]c2=O)O1)C(N)=O | 214 µM
O=C1C(=O)N(CCOCCN2C(=O)C(=O)c3cc(F)ccc32)c2ccc(F)cc21 | 132.5 µM
C[C@H]1[C@@H]2O[C@]3(NC(=O)OC(C)(C)C)[C@@H](C)[C@H]1O[C@H]2[C@@H]3I | >63 µM
Cc1cn([C@H]2C=C[C@@H](COC(=O)NCCSC(=O)OC[C@@H]3C=C[C@H](n4cc(C)c(=O)[nH]c4=O)O3)O2)c(=O)[nH]c1=O | >100 µM
Cn1ncc2c1S(=O)(=O)N(Cc1cccc(Cl)c1)C(=O)N2Cc1ccc(Br)cc1 | >252.3 µM
COc1cc([C@@H]2c3cc(O)c(OC)cc3C[C@@H](CO)[C@@H]2CO)ccc1O | >200 µM
CCOP(=O)(OCC)C(F)(F)C[C@@]1(O)CO[C@@H](n2cc(C)c(=O)[nH]c2=O)C1 | >100 µM
CCc1c(Sc2ccc3ccccc3c2Cl)n(COC)c(=O)[nH]c1=O | 192.9 µM
COc1cc(NC2=NS(=O)(=O)NC(Cc3ccc4ccccc4c3)=C2)cc(OC)c1OC | 204 µM
CC(=O)O[C@H]1[C@H](C)[C@@H]2O[C@@](NC(=O)OC(C)(C)C)([C@@H]3O[C@H]23)[C@H]1C | >76 µM
Cc1cn([C@H]2C=C[C@@H](COC(=O)NCCSC(=O)OC[C@@H]3CC[C@H](n4cnc5c(=O)[nH]cnc54)O3)O2)c(=O)[nH]c1=O | >100 µM
O=c1[nH]c(=O)n([C@H]2C=C[C@@H](CO)O2)cc1C#CCCCCO | 70 µM
Cc1ccc(/C=C/c2cc(C)c(Oc3ccnc(Nc4ccc(C#N)cc4)n3)c(C)c2)cc1 | 8.51 µM

For reference, 9 entries again:

compound | value
Cc1cn([C@H]2C=C[C@@H](CO)O2)c(=O)[nH]c1=O | 314 µM
COc1ccc(/C=C/C(=O)O)cc1OC | 118 µM
COc1cc([C@@H]2c3cc(O)c(OC)cc3C[C@@H](CO)[C@@H]2CO)ccc1O | >200 µM
C/C=C(\C)C(=O)O[C@H]1[C@H](OC(=O)CC)[C@@]23C(CC1(C)C)[C@]1(CCC4[C@@]5(C)CC[C@H](O[C@@H]6O[C@H](CO)[C@@H](O)[C@H](O[C@@H]7O[C@H](CO)[C@H](O)[C@H](O)[C@H]7O[C@@H]7O[C@@H](C)[C@H](O)[C@@H](O)[C@H]7O)[C@H]6O[C@@H]6O[C@H](CO)[C@H](O)[C@H](O)[C@H]6O)C(C)(C)C5CC[C@@]4(C)[C@]1(C)C[C@H]2O)O[C@@H]3O | <15 µg/mL
Nc1ccn([C@H]2C[C@]3(CO2)CC(F)(F)P(=O)(O)O3)c(=O)n1 | 90 µM
O=c1[nH]c(=O)n([C@H]2C=C[C@@H](CO)O2)cc1C#CCCCO | 71 µM
CC(=O)O[C@H]1[C@H](C)[C@@H]2O[C@@](NC(=O)OC(C)(C)C)([C@@H]3O[C@H]23)[C@H]1C | >76 µM
COc1cc(NC2=NS(=O)(=O)NC(Cc3ccccc3)=C2)cc(OC)c1OC | >310 µM
CCOCn1c(Sc2ccc3ccccc3c2)c(C(C)C)c(=O)[nH]c1=O | 36.3 µM

Conditions beyond the fields shown may differ between rows.